PubChem BioAssay AID504761, Drosophila RNAi Screening Center – 2011
The deposit covers about 22,000 reagents; below is a random part of those with a known target gene and a result. In the full data, 116 (0.52%) are marked active. 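Calls depend on retest data that are not deposited; infection was ranked per plate without normalising between plates; the unit of the infection score is not given.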 Raw values are not corrected between plates. Entries without a mark were called inactive. Not given: the amount of reagent, the time to read-out.

Assay: 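Genome-wide fly cell screen for genes dengue virus requires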 (primary screen)
System: D.Mel-2 cells from Drosophila
Reagent: long dsRNA against Drosophila genes
Conditions: infection with dengue virus type 2; dose and infection time not stated
Measured: 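Per well on two replicate plates, imaging gave the percent of cells positive for viral envelope protein, ranked by infection, and a nuclear count of cells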
Scale: infection score: higher = more virus-infected cells; cell count: higher = more cells in the well
Active means: 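Low infection ranks in the two replicates (chance level up to 0.065) followed by a retest with a 1.5-fold or larger significant decrease, p below 0.05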
Calls: active = confirmed: knock-down lowers infection; inactive = not picked or not confirmed

| target | DRSC id | infection score, replicate 1 | infection score, replicate 2 | cell count, replicate 1 | cell count, replicate 2 |
| --- | --- | --- | --- | --- | --- |
| CG11141 | DRSC06048 | 3.54 | 10.7 | 6774 | 4784 |
| sigmar (salivary glands marred) | DRSC04449 | 6.15 | 5.89 | 6135 | 6283 |
| CG31482 | DRSC12582 | 16.5 | 27.8 | 6565 | 4279 |
| pdgy (pudgy) | DRSC19064 | 3.48 | 6.76 | 6381 | 6498 |
| pdgy (pudgy) | DRSC19341 | 11.7 | 0.45 | 6348 | 6874 |
| Vha14-1 (Vacuolar H[+] ATPase 14kD subunit 1) | DRSC07571 | 0.82 (active) | 1.53 | 5605 | 5686 |
| cert (ceramide transfer protein) | DRSC09674 | 12.4 | 12.3 | 3886 | 5556 |
| Atet (ABC transporter expressed in trachea) | DRSC00263 | 5.42 | 5.64 | 6713 | 6630 |
| CG5597 | DRSC04517 | 18.4 | 20.9 | 4824 | 6109 |
| GstT4 (Glutathione S transferase T4) | DRSC19757 | 3.46 | 5.63 | 6790 | 6984 |
| CG31546 | DRSC12317 | 3.93 | 7.16 | 6431 | 6953 |
| CG31546 | DRSC25825 | 5.9 | 8.21 | 6132 | 5977 |
| BobA | DRSC09889 | 3.14 | 2.99 | 5959 | 5946 |
| eEF1alpha2 (eukaryotic translation elongation factor 1 alpha 2) | DRSC14079 | 0.56 | 0.02 | 6426 | 6653 |
| eEF1alpha2 (eukaryotic translation elongation factor 1 alpha 2) | DRSC16658 | 2.26 | 2.44 | 4246 | 4421 |
| CG14634 | DRSC17944 | 7.85 | 6.91 | 1808 | 2069 |
| Gli (Gliotactin) | DRSC03332 | 12 | 11.1 | 6271 | 6074 |
| CG4617 | DRSC18377 | 7.76 | 2.42 | 6325 | 6484 |
| CG4617 | DRSC23828 | 3.83 | 16.5 | 5564 | 5257 |
| salto | DRSC06291 | 4.01 | 17.6 | 6114 | 6304 |
| salto | DRSC29983 | 6.01 | 10.7 | 6110 | 5715 |
| CG42324 | DRSC08431 | 3.77 | 6.16 | 6334 | 6295 |
| CG42324 | DRSC08432 | 4.04 | 3.31 | 5688 | 6079 |
| CG42324 | DRSC26516 | 4.8 | 1.82 | 5105 | 6044 |
| CG32102 | DRSC22015 | 3.43 | 4.94 | 7033 | 6695 |
| Pgant4 (Polypeptide N-Acetylgalactosaminyltransferase 4) | DRSC00717 | 7.44 | 2.93 | 6825 | 6714 |
| Pgant4 (Polypeptide N-Acetylgalactosaminyltransferase 4) | DRSC29585 | – | – | 447 | 360 |
| CG6966 | DRSC16156 | 13.9 | 32.6 | 4802 | 4763 |
| CG6966 | DRSC24518 | 3.02 | 3.95 | 6913 | 6296 |
| CG1986 | DRSC18197 | 5.31 | 3.03 | 6028 | 6539 |
| CG1986 | DRSC27916 | 13.9 | 3.87 | 6252 | 7054 |
| CG32681 | DRSC17646 | 7.36 | 14 | 6685 | 6143 |
| CG3690 | DRSC18170 | 3.21 | 12.9 | 6004 | 5531 |
| CG3690 | DRSC18641 | 9.38 | 8.02 | 5088 | 6099 |
| SMC3 (Structural maintenance of chromosomes 3) | DRSC20227 | 15.1 | 0.77 | 5001 | 6325 |
| Alas (Aminolevulinate synthase) | DRSC04044 | 27.3 | 18.5 | 5744 | 5395 |
| CG10077 | DRSC09691 | 18.5 | 5.85 | 6020 | 5997 |
| CG10077 | DRSC24756 | 2.86 | 5.23 | 6646 | 6940 |
| Vps2 (Vacuolar protein sorting 2) | DRSC14886 | 3.43 | 0.71 | 3843 | 4083 |
| Vps2 (Vacuolar protein sorting 2) | DRSC27194 | 13.6 | 6.98 | 2982 | 3423 |
